Anti-infective test results gathered from many reports (values: NIAID ChemDB through PubChem).

Shared fields: growth or infection tests; agent: Herpes simplex virus 1; cells: PRK; method: cytopathic effect; endpoint: EC50

Blank or dashed fields: not listed here. ECn is the concentration giving n% inhibition of infection, replication or growth. Lines come from different laboratories, so protocols vary.

smiles | strain or isolate | result
Nc1ncnc2c1ccn2[C@@H]1C[C@H](CO)[C@@H](O)[C@H]1O |  | ≥10 µg/mL
Nc1nccc2c1ncn2[C@@H]1O[C@H](CO)[C@@H](O)[C@H]1O | KOS | 200 µg/mL
NC(=O)c1cn([C@@H]2O[C@H](CO)[C@@H](O)[C@@H]2O)c2ncnc(N)c12 | KOS | 4 µg/mL
Nc1nccc2c1ncn2[C@@H]1C[C@H](CO)[C@@H](O)[C@H]1O | KOS | >400 µg/mL
Nc1ncnc2c1ncn2C[C@H](O)CO | KOS | >400 µg/mL
Nc1nccc2c1ncn2[C@@H]1C[C@H](CO)[C@@H](O)[C@H]1O |  | ≥200 µg/mL
C#Cc1c(C(N)=O)ncn1[C@@H]1O[C@H](CO)[C@@H](O)[C@H]1O | KOS | >400 µg/mL
Nc1ncnc2c1ccn2[C@@H]1O[C@H](CO)[C@H](O)[C@H]1O | McIntyre | 0.2 µg/mL
Nc1ncnc2c1ncn2C[C@H](O)CO | F | >100 µg/mL
Nc1ncnc2c1ncn2[C@@H]1C=C(CO)[C@@H](O)[C@H]1O | KOS | 4 µg/mL
Nc1ncnc2c1ncn2C[C@H](O)CO | KOS F McIntyre | ≥300 µg/mL
Nc1nccc2c1ncn2[C@@H]1C[C@H](CO)[C@@H](O)[C@H]1O | KOS | >400 µg/mL
Nc1ncnc2c1ncn2C[C@H](O)CO |  | >400 µg/mL
Nc1ncnc2c1ncn2[C@H]1[C@H](O)[C@H](O)[C@]2(CO)O[C@H]12 | KOS | 2 µg/mL
N#Cc1cn([C@H]2C[C@H](O)[C@@H](CO)O2)c2ncnc(N)c12 | KOS | ≥1 µg/mL
Nc1nccc2c1ncn2[C@@H]1O[C@H](CO)[C@@H](O)[C@H]1O |  | ≥40 µg/mL
O=c1[nH]c(=O)n([C@H]2C[C@H](O)[C@@H](CO)O2)cc1/C=C/Br | Three isolates pooled | >1302 µM
CCCC#Cc1c(C(N)=O)ncn1[C@@H]1O[C@H](CO)[C@@H](O)[C@H]1O | KOS | >400 µg/mL
NC(=O)c1ncn([C@@H]2O[C@H](CO)[C@@H](O)[C@H]2O)n1 | KOS | >400 µg/mL
Nc1nccc2c1ncn2[C@@H]1C[C@H](CO)[C@@H](O)[C@H]1O |  | 200 µg/mL
Nc1nccc2c1ncn2[C@@H]1C[C@H](CO)[C@@H](O)[C@H]1O | KOS | >400 µg/mL
O=c1[nH]cnc2c1ncn2[C@@H]1C=C(CO)[C@@H](O)[C@H]1O | KOS | >400 µg/mL

2 of the rows above, restated:

| smiles | strain or isolate | result |
|---|---|---|
| Nc1ncnc2c1ccn2[C@@H]1C[C@H](CO)[C@@H](O)[C@H]1O |  | ≥10 µg/mL |
| C#Cc1c(C(N)=O)ncn1[C@@H]1O[C@H](CO)[C@@H](O)[C@H]1O | KOS | >400 µg/mL |